Where “and” joins values, the source holds several entries; their conditions need not be identical. Equal values may be shown once. Only a part is listed here, and it is no random draw. Calls of active or inactive are those of the source. Rule as the data show it: active = max response mostly above about 13% (no sharp cut-off); inactive = mostly below about 14%.

This assay can be described thus: Cycloheximide Counterscreen for Small Molecule Inhibitors of Shiga Toxin. Also: read at 38.3 µM for the half of the compounds with a filed dose; 0% is about no effect. The conditions noted are these: cell reporter, cycloheximide protein synthesis inhibition counterscreen; stronger effect = higher value. A general note: Counterscreens check selectivity or assay interference.
With `Nc1cccc([As](=O)(O)c2ccccc2)c1`, the max response was inactive: -2.16%. The result for `Cc1ccc(OCC(=O)OC2CN3CCC2CC3)cc1` (stereo not drawn) reads inactive: -2.1%; that for `O=[As](O)(c1cccs1)c1cccs1`, inactive: 1.75%; that for `O=P1(Nc2ccc(Br)cn2)COc2ccccc2OC1`, inactive: 4.46%. As for `O=P1(Nc2ncccn2)COc2ccccc2OC1`, the figure is inactive: -3.79%. As for `CN(C)C1(CNC(=O)c2ccc(S(C)(=O)=O)cc2)CCCCC1`, the figure is inactive: -1.67%; as for `O=C(/C=C/c1ccccc1)OC1CN2CCC1CC2` (stereo not drawn), inactive: 13.8%; as for `CC1CCC(C(C)C)C(OP(=O)(Nc2ccccn2)c2ccccc2)C1` (stereo not drawn), inactive: -1.27%. For the molecule `Cc1ccc(C(=O)OC2CN3CCC2CC3)cc1` (stereo not drawn), the max response was inactive: -9.14%. As for `Cc1nn(-c2ccccc2)c2c1P(=O)(N1CCOCC1)N(C)C(c1ccccc1)=N2` (stereo not drawn), the figure is inactive: -2.52%. As for `CC(C)/C=N\N=C(\N)N[N+](=O)[O-]`, the figure is inactive: 5.14%.

Regarding `CN(C(=O)Cc1ccc(Cl)c(Cl)c1)[C@@H]1CCCC[C@H]1N1CCCC1`, the max response was inactive: -11.2%. As for `O=[As](O)(c1ccccc1Br)c1ccccc1Br`, the figure is inactive: 8.5%; as for `CC(C)(C)C(=O)NC(Sc1ncccn1)C(Cl)(Cl)Cl` (stereo not drawn), inactive: 8.66%. The result for `Clc1n[nH]nc1-c1nn[nH][15n]1` reads inactive: -0.85%. For `CCOP(=O)(NC(=NC(C)c1ccccc1)NC(C)c1ccccc1)OCC` (stereo not drawn), the max response is inactive: 4.3%.

As for `O=P1(Nc2ccccn2)COc2ccccc2OC1`, the max response was inactive: -2.38%.

Take `CCC1=CC2Cc3nc4ccc(Cl)cc4c(N)c3C(C1)C2` (stereo not drawn): the max response was inactive: -5.22%. The result for `CCOP(=O)(Nc1ccc(C)cn1)OCC` reads inactive: 1.19%; that for `CCOP(=O)(Nc1cccc2ccccc12)OCC`, inactive: -3.84%.

`COc1cc(C2NCCC3(OCCO3)C2(C)C)cc(OC)c1OC` (stereo not drawn): the max response is inactive: -3.9%. Consider `Nc1cccc2c([As](=O)(O)O)cccc12`, for which the max response was inactive: -3.66%. As for `CCCOP(=S)(Nc1nc(N)cc(=O)[nH]1)OCCC`, the figure is inactive: 0.135%. As for `Cc1cccc(OCC(=O)OC2CN3CCC2CC3)c1` (stereo not drawn), the max response was inactive: -3.65%. The result for `O=[As](O)(c1cccc(O)c1)c1cccc(O)c1` reads inactive: -2.82%. The result for `O=C(OC1CN2CCC1CC2)c1ccc(Cl)cc1` (stereo not drawn) reads inactive: -2.8%; that for `CS(=O)(=O)c1ccc(Cl)c(NC(=O)COC(=O)C(O)(c2ccccc2)c2ccccc2)c1`, inactive: -0.935%; that for `O=[As](O)(O)c1cccnc1`, inactive: -0.709%. The result for `COc1cc(C(=O)NCC2(N3CCOCC3)CCCCC2)cc(Cl)c1OC(C)C` reads inactive: -0.753%; that for `CCOP1(=S)c2c(C)nn(CCC#N)c2N=C(c2ccc(F)cc2)N1C` (stereo not drawn), inactive: 5.54%. On to `CN(C(=O)Cc1ccccc1)[C@@H]1CC[C@]2(CCCO2)C[C@H]1N1CCCC1`, for which the max response was inactive: -5.3%.

Take `O=[N+]([O-])c1ccc2c(c1)nnn2O`: the max response was inactive: -1.56%. As for `NC(=O)Nc1ccc([As](=O)(O)O)cc1`, the figure is inactive: -3.66%. As for `Nc1ccccc1[As](=O)(O)c1ccccc1`, the figure is inactive: 1.28%; as for `O=C(O)COc1ccc([As](=O)(O)O)cc1[N+](=O)[O-]`, inactive: 3.36%. As for `O=P(Nc1nccs1)(Oc1ccccc1)Oc1ccccc1`, the figure is inactive: 7.01%; as for `O=P(Nc1nccs1)(c1ccccc1)c1nc2ccccc2s1` (stereo not drawn), active: 9.95%.

Turning to `CCOP1(=S)c2c(C)nn(CCC#N)c2N=C(c2ccccc2F)N1C` (stereo not drawn), the max response is inactive: -2.97%. The result for `O=[N+]([O-])c1cc([N+](=O)[O-])c(-c2ccn[nH]2)s1` reads inactive: 12.1%; that for `CC(C)NC(=O)NP(=O)(Oc1ccccc1)Oc1ccccc1`, inactive: 5.81%.

In the case of `CCN(CC)C(=S)SC(NC=O)C(Cl)(Cl)Cl` (stereo not drawn), the max response is inactive: -4.22%. As for `ClCCSc1nnc(-c2cccnc2)o1`, the figure is active: 35.7%; as for `CC(C)c1ccc(OP(=O)(Nc2ccccn2)Oc2ccccc2F)cc1` (stereo not drawn), inactive: 6.54%. As for `Cc1ccc(OP(=O)(Nc2ccc([N+](=O)[O-])cn2)Oc2ccc(C)cc2)cc1`, the figure is inactive: 0.661%; as for `Cc1ccc2nc3c(c(C)c2c1)CC(C(Cl)Cl)S3` (stereo not drawn), active: 18.9%; as for `C[As](=O)(O)c1cccc(C(=O)O)c1`, inactive: -0.814%. The result for `O=[As](O)(c1ccc(O)cc1)c1ccccc1O` reads inactive: -1.31%; that for `COc1ccc(N/C(=N/P(=O)(N2CCOCC2)N2CCOCC2)N2CCOCC2)cc1`, inactive: -1.77%; that for `COc1cc(I)ccc1[As](=O)(O)O`, inactive: -2.26%. Take `COc1ccc2nc(NP(=O)(c3ccccc3)c3ccccc3)sc2c1`: the max response was inactive: -2.42%. The result for `Cc1c2c(nc3ccccc13)SC(C(Cl)Cl)C2` (stereo not drawn) reads inactive: 17.6%; that for `Cc1cc(=O)[nH]c(N[N+](=O)[O-])n1`, inactive: -2.06%. The result for `O=C(OC1CN2CCC1CC2)C12CC3CC(CC(C3)C1)C2` (stereo not drawn) reads inactive: -1.69%; that for `CCC(C)N(CC(C)C)C(=S)SC(NC(C)=O)C(Cl)(Cl)Cl` (stereo not drawn), inactive: 2.23%.

On to `CCOP(=O)(Nc1cccc2cccnc12)OCC`, for which the max response was inactive: 4.24%. On to `O=C(OC1CN2CCC1CC2)c1cccc([N+](=O)[O-])c1` (stereo not drawn), for which the max response was inactive: -0.471%. As for `CCOC(=O)c1ccc(NC(=O)C(C)(CCl)SC)cc1` (stereo not drawn), the figure is active: 26.3%; as for `O=C(Nc1ccncc1[N+](=O)[O-])c1ccc([N+](=O)[O-])cc1[N+](=O)[O-]`, inactive: -1.6%; as for `O=C(COc1ccccc1)OC1CN2CCC1CC2` (stereo not drawn), inactive: 7.83%. As for `COP1(=S)c2c(C)nn(CCC#N)c2N=C(c2ccc(F)cc2)N1C` (stereo not drawn), the figure is inactive: -1.81%; as for `O=P(Nc1ccccn1)(c1cccc2ccccc12)c1cccc2ccccc12`, inactive: 2.53%. As for `Cc1cc(SC(NC=O)C(Cl)(Cl)Cl)ncn1` (stereo not drawn), the figure is inactive: 4.26%.

On to `O=[N+]([O-])c1ccc(Nc2ccc(Oc3ccc([N+](=O)[O-])cc3[N+](=O)[O-])cc2)c([N+](=O)[O-])c1`, for which the max response was inactive: -2.09%.

Take `CCOC(=O)Nc1cccc([As](=O)(O)O)c1`: the max response is inactive: -3.13%. As for `Cc1cc(SC(NC(=O)c2ccccc2)C(Cl)(Cl)Cl)nc(C(C)C)n1` (stereo not drawn), the figure is inactive: -0.818%; as for `CCCCOc1ccc(C(=O)NCC2(N3CCCCC3)CCCCC2)cc1OC`, inactive: -5.37%; as for `CCOC(=O)Nc1ccc([As](=O)(O)O)c(O)c1`, inactive: 0.186%. The result for `O=C(O)CNc1ccc([As](=O)(O)O)cc1` reads inactive: -6.95%; that for `O=[N+]([O-])c1cccc(NC2=NCC(CBr)S2)c1` (stereo not drawn), inactive: 1.04%. The result for `CC(C)(C)C(=O)NC(Sc1ccncn1)C(Cl)(Cl)Cl` (stereo not drawn) reads inactive: 0.945%. Take `O=C(Nc1cc([As](=O)(O)O)ccc1O)c1ccccc1`: the max response was inactive: 0.741%.

Regarding `CC(=O)C1=CCCC2CCC1N2` (stereo not drawn), the max response was inactive: -1.72%. As for `CC1CCN(C(=O)Oc2c(Cl)cc(Cl)c3cccnc23)CC1`, the figure is inactive: 12.9%. As for `CN(C)C(=O)OCCc1n(C)cc[n+]1C`, the figure is inactive: 0.865%. As for `CCN(/C(=N/P(=O)(N1CCOCC1)N1CCOCC1)N1CCOCC1)c1ccc(OC)cc1`, the max response is inactive: 1.26%. `Nc1ccc([As](=O)(O)c2ccc(N)cc2)cc1`: the max response is inactive: -0.656%.

Turning to `Cc1ccc(NP(=O)(Oc2ccccc2)Oc2ccccc2)nc1`, the max response is inactive: 4.86%.

In the case of `O=[N+]([O-])c1cccc2n[nH]nc12`, the max response is inactive: -1.24%. Take `CC(=O)N1C2C3N(C(C)=O)C1C1N(C(C)=O)C(C(N1C(C)=O)N3C(C)=O)N2C(C)=O`: the max response is inactive: -2.68%.

`COc1ccc(C2=NCC(CBr)S2)cc1` (stereo not drawn): the max response was inactive: 26.3%. `O=C(NC(Sc1ccncn1)C(Cl)(Cl)Cl)c1ccccc1` (stereo not drawn): the max response is inactive: -1.7%.

Consider `Cc1c2non([O-])c-2c(C)[n+](=O)[n+]1[O-]`, for which the max response is inactive: 9.49%. As for `Oc1ccccc1CNc1ccccn1`, the figure is inactive: 12.2%.

As for `CC(C)CC(=O)NC(Sc1ccc(Cl)cc1)C(Cl)(Cl)Cl` (stereo not drawn), the max response was inactive: -2.2%. In the case of `CN1CCCC(OC(=O)C(c2ccccc2)c2ccccc2)C1` (stereo not drawn), the max response is inactive: 7.31%.

Turning to `Clc1ccc(Cl)c(NC2=NCC(CBr)S2)c1` (stereo not drawn), the max response is inactive: 5.35%.

Take `Cc1ccc(OP(=O)(Nc2nccs2)Oc2ccc(C)cc2)cc1`: the max response was inactive: -2.9%. On to `COc1ccccc1OP(=O)(Nc1ccc(C)cn1)Oc1ccccc1OC`, for which the max response was inactive: -2.59%. As for `Cc1ccc(N/C(=N/P(=O)(N2CCOCC2)N2CCOCC2)N2CCOCC2)cc1`, the figure is inactive: 9.85%; as for `NC(=O)c1cc([N+](=O)[O-])cc([N+](=O)[O-])c1N`, inactive: -2.26%. As for `Nc1cccc2ccc([As](=O)(O)O)cc12`, the figure is inactive: -7.51%; as for `Cc1ccc(NP(=O)(Oc2ccccc2F)Oc2ccccc2F)nc1`, inactive: -1.76%; as for `CN(C(=O)Cc1ccc(Cl)c(Cl)c1)[C@H]1CCCC[C@@H]1N1CCCC1`, inactive: -6.12%. The result for `Cc1cc(SC(NC(=O)c2ccc(F)cc2)C(Cl)(Cl)Cl)ncn1` (stereo not drawn) reads inactive: -3.14%; that for `CCOP(=O)(Nc1ccccc1)OCC`, inactive: -2.98% and inactive: -1.71%. As for `O=P(Nc1nc2ccc(Cl)cc2s1)(c1ccccc1)c1ccccc1`, the max response was inactive: -1.41%.

On to `CC(=O)Nc1ccc([As](=O)(O)O)cc1`, for which the max response is inactive: -5.82%. Consider `O=C(O)c1ccccc1[As](=O)(O)O`, for which the max response was inactive: 4.49%. As for `CN(C)C(=O)Oc1noc2ccccc12`, the figure is inactive: -1.76%; as for `Cc1ccccc1OP(=O)(Nc1ccccn1)Oc1ccccc1C`, inactive: -3.67%. In the case of `CCC(=O)N1C2C3N(C(=O)CC)C1C1N(C(=O)CC)C(C(N1C(=O)CC)N3C(=O)CC)N2C(=O)CC`, the max response is inactive: -0.471%. As to `O=C(OC1CN2CCC1CC2)c1ccccc1` (stereo not drawn), the max response was inactive: -1.75%. As for `CC(=O)NC(SC(=S)N(CC(C)C)CC(C)C)C(Cl)(Cl)Cl` (stereo not drawn), the figure is inactive: -3.33%.

Source of the values: PubChem BioAssay AID2314 (National Center for Advancing Translational Sciences (NCATS), 2010).
